This is an account of results in US20210061889A1.

In this assay the target is Ebola Zaire glycoprotein (GP) on Ebola virus-like particles (VLP) (Zaire Ebola virus) (UniProt Q05320). The experiment in a line: cell-based or functional assay.

“ZMapp™ cocktail (c2G4, c116C6FR1 and c4G7 mixed at a 1:1:1 ratio)” yielded a fraction of mobile VLP in human airway mucus of 29%.

With c2G4 (antibody), the <Deff> of Ebola VLP in human airway mucus, reduction relative to no Ab came to 28 fold and the fraction of mobile Ebola VLP in human airway mucus was 27%.

As for c4G7 (antibody), the <Deff> of Ebola VLP in human airway mucus, reduction relative to no Ab is 25 fold and the fraction of mobile Ebola VLP in human airway mucus amounted to 30%.

In the case of c116C6FR1 (antibody), the <Deff> of Ebola VLP in human airway mucus, reduction relative to no Ab is 22 fold and the fraction of mobile Ebola VLP in human airway mucus was 33%.
